Measurements taken from article PMC7790382, “An immunotoxin targeting Ebola virus glycoprotein inhibits Ebola virus production from infected cells” (PLoS ONE, 2021).
Like-named read-outs stand apart in the source and are kept apart here.

B1: monoclonal antibody 6D8 (antibody, V domains shown)
VH: DVKLLESGGGLVQPGGSLKLSCAASGFDFSRYWMSWVRQAPGKGLEWIGEINPDSSTINYTPSLKDKFIISRDNAKNTLYLQMSKVRSEDTALYYCTRQGYGYNYWGQGTTLIVSS
VL: DVLLTQIPLSLPVSLGDQASISCRSSQSIVHSNGNTYLEWYLQKPGQSPKLLIYKASNRFSGVPDRFSGSGSGTDFTLKINRVEAEDLGVYYCLQGSHVPSTFGGGTKLEIK
B2: 6D8-PE38 recombinant immunotoxin (scFv, V domains shown)
VH: B1 VH
VL: B1 VL

Legend:
[1] = target: Ebola virus (variant Yambuku, isolate Mayinga) glycoprotein GP1,2 (Ebola virus (Zaire ebolavirus), variant …, UniProt Q05320)
[2] = target: Marburg virus (variant Mt. Elgon, isolate Musoke) glycoprotein GP1,2 (Marburg virus, variant Mt. Elgon, …, UniProt P35253)

| Binder | binding result ([1]; one partner purified) | binding result [1] | binding result [2] |
| --- | --- | --- | --- |
| B1 | binds |  |  |
| B2 |  | binds | no binding |
